# Measured values published in the supplement of paper PMC9931576.
# Human monoclonal antibodies against the spike receptor-binding domain (heavy:light variable regions). IC50 against pseudoviruses bearing the spike of naturally observed variants; lower = stronger; >10 µg/ml means not reached at the top dose. No active / inactive call. The stated detection limit is 0.0005 µg/ml; values near or below 0.001 µg/ml lie at the floor of the assay.
# B1: BD58-0483 (protein)
# chain 1: QVQLQESGPGLVKPSQTLSLTCTVSGGSISSGGYYWSWIRQHPGKGLEWIGYIYNSGSTYYNPSLKSRVTISVDTSKNQFSLKLSSVTAADTAVYYCARGVDSSWFGYFDLWGRGTLVTVSS
# chain 2: QFALTQPASVSGSPGQSITISCTGTSSDFGGYNYVSWYQQHPGKAPKLMIYDISNRPSGVSNRFSGSKSGNTASLTISGLQAEDEADYFCSSYTSSTTPCVVFGGGTEVTVL
# B2: BD58-0488 (protein)
# chain 1: EVQLVESGGGLVQPGGSLRLSCAASGFTVDSNYMNWVRQAPGKGLELVSLVYSGGNTYYADSVKDRFTISRDNSKNTLYLQMNSLRAEDTAMYYCARGDLELFVWGQGTLVTVSS
# chain 2: DIQMTQSASSLSASVGDRVTITCRASQSISSYLNWYQQKPGKAPKLLIYAASSLHSGVPSRFSGSGSGTDFTLTISSLQPEDFATYYCQQSYTSPRLTFGGGTKVEIK
# B3: BD58-0491 (protein)
# chain 1: EVQLVQSGAEVKKPGESLRISCKVSGYNFASFWINWVRQMPGKGLEWMGRIDPSDSYTDYSPSFQGHVTVSADKSITTAYLLWSSLKASDTAMYYCARGGPSTYDVGGYPTGWFDPWGQGTLVTVSS
# chain 2: EIVLTQSPGTLSLSPGERATLSCRASQSVRRSYLAWYQQKPGQAPRLLIYGASSRATGIPDRFSGSGSGTDFTLTISRLEPEDFAVYYCQQYGRSPPLTFGPGTKVDIK
# B4: BD56-282 (protein)
# chain 1: QVTLRESGPALVKPTQTLTLTCTFSGFSLSTSGMCVSWIRQPPGKALEWLALIDWDDDKYYSTSLKTRLTISKDTSKNQVVLTMTNMDPVDTATYYCAHIRGDFYYYGMDVWGQGTTVTVSS
# chain 2: SYELTQPPSVSVSPGQTARITCSGDALPNQYAYWYQQKPGQAPVLVIYKDSERPSGIPERFSGSSSGTTVTLTISGVQAEDEADYYCQSSDTNTPVVFGGGTKLTVL
# B5: BD58-0511 (protein)
# chain 1: EVQLVESGGGLVQPGGSLRVSCAASGFTFSSFGMNWVRQAPGKGLEWVSYISSSSSTIYYADSVKGRLTISRDNARKSLYLQMNSLKAEDTAVYYCARGGLLGIAVAGLAPFDYWGQGTLVTVSS
# chain 2: DIQMTQSPSSLSASVGDRVTITCQASQDIDNFLNWYQQKPGKAPQLLIVDASDLETGVPSRFSGSGSGTEFTFTINSLQPEDVATYFCQQYTDLPLTFGGGTKVEIK
# Target: SARS-CoV-2 Omicron BA.1 spike pseudovirus
# Experiment: pseudovirus neutralization IC50; higher = weaker neutralization
# Protocol: (§1)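 Single-round VSV luciferase pseudovirus mixed with antibody dilutions for 1 h and put on Huh-7 cells for about a day; IC50 from the dose curve.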
row,Binder,pseudovirus neutralization IC50
1,B1,0.287 µg/mL
2,B2,0.0582 µg/mL
3,B3,0.447 µg/mL
4,B4,0.00122 µg/mL
5,B5,0.0793 µg/mL

# Target: SARS-CoV-2 Omicron BA.2 spike pseudovirus
# Experiment: as above
# Protocol: as §1
row,Binder,pseudovirus neutralization IC50
1,B1,0.0118 µg/mL
2,B2,0.00206 µg/mL
3,B3,0.0167 µg/mL
4,B4,0.00774 µg/mL
5,B5,0.0882 µg/mL

# Target: SARS-CoV-2 Omicron BA.2.75 spike pseudovirus
# Experiment: as above
# Protocol: as §1
row,Binder,pseudovirus neutralization IC50
1,B1,0.155 µg/mL
2,B2,> 10 µg/mL
3,B3,> 10 µg/mL
4,B4,0.0166 µg/mL
5,B5,> 10 µg/mL

# Target: SARS-CoV-2 Omicron BA.2.75.2 spike pseudovirus
# Experiment: as above
# Protocol: as §1
row,Binder,pseudovirus neutralization IC50
1,B1,0.249 µg/mL
2,B2,> 10 µg/mL
3,B3,> 10 µg/mL
4,B4,0.0294 µg/mL
5,B5,> 10 µg/mL

# Target: SARS-CoV-2 Omicron BA.5 spike pseudovirus
# Experiment: as above
# Protocol: as §1
row,Binder,pseudovirus neutralization IC50
1,B1,> 10 µg/mL
2,B2,> 10 µg/mL
3,B3,> 10 µg/mL
4,B4,0.0108 µg/mL
5,B5,> 10 µg/mL

# Target: SARS-CoV-2 Omicron BM.1.1.1 spike pseudovirus
# Experiment: as above
# Protocol: as §1
row,Binder,pseudovirus neutralization IC50
1,B1,> 10 µg/mL
2,B2,> 10 µg/mL
3,B3,> 10 µg/mL
4,B4,0.0197 µg/mL
5,B5,> 10 µg/mL

# Target: SARS-CoV-2 Omicron BQ.1.1 spike pseudovirus
# Experiment: as above
# Protocol: as §1
row,Binder,pseudovirus neutralization IC50
1,B1,> 10 µg/mL
2,B2,> 10 µg/mL
3,B3,> 10 µg/mL
4,B4,4.3 µg/mL
5,B5,> 10 µg/mL

# Target: SARS-CoV-2 Omicron BR.2 spike pseudovirus
# Experiment: as above
# Protocol: as §1
row,Binder,pseudovirus neutralization IC50
1,B1,> 10 µg/mL
2,B2,> 10 µg/mL
3,B3,> 10 µg/mL
4,B4,0.0175 µg/mL
5,B5,> 10 µg/mL

# Target: SARS-CoV-2 Omicron CA.1 spike pseudovirus
# Experiment: as above
# Protocol: as §1
row,Binder,pseudovirus neutralization IC50
1,B1,> 10 µg/mL
2,B2,> 10 µg/mL
3,B3,> 10 µg/mL
4,B4,0.0283 µg/mL
5,B5,> 10 µg/mL

# Target: SARS-CoV-2 Omicron XBB spike pseudovirus
# Experiment: as above
# Protocol: as §1
row,Binder,pseudovirus neutralization IC50
1,B1,> 10 µg/mL
2,B2,> 10 µg/mL
3,B3,> 10 µg/mL
4,B4,0.388 µg/mL
5,B5,> 10 µg/mL

# Target: SARS-CoV-2 early D614G spike pseudovirus
# Experiment: as above
# Protocol: as §1
row,Binder,pseudovirus neutralization IC50
1,B1,> 10 µg/mL
2,B2,> 10 µg/mL
3,B3,> 10 µg/mL
4,B4,> 10 µg/mL
5,B5,> 10 µg/mL
